Anti-infective test results gathered from many reports (values: NIAID ChemDB through PubChem).

All rows: growth or infection tests; species: HIV-1; read-out: EC50

Lines come from different laboratories, so protocols vary. Two numbers with a dash give a range or band. An empty or dashed field is not shown. ECn is the concentration giving n% inhibition of infection, replication or growth.

| structure | setting | read by | cell line | strain or isolate | changes | result |
|---|---|---|---|---|---|---|
| CC(C)=CCN1c2cc(Cl)cc3[nH]c(=S)n(c23)C[C@@H]1C | - | - | MT-4 | - | RT-K70R Y181C | <12.5 µM |
| CCCCCCCCCCCCCC(=O)OC[C@@H](COP(=O)(O)OC[C@@H]1CC[C@H](n2cc(C)c(=O)[nH]c2=O)O1)OC(=O)CCCCCCCCCCCCC | - | ELISA | CEM13 + CEM | LAV-Bru | - | ~1 µM |
| CCOC(=O)c1cn(Cc2ccncc2)c(Sc2cc(F)cc(F)c2)c1C(C)C | - | cytopathic effect / MTT | MT-4 | IIIB | - | 1.2 µM |
| O=C1CN=C(c2ccc[nH]2)c2cc(Cl)ccc2N1 | - | p24 | U87.CD4-CCR5+ + U87.CD4 | BAL R5 | - | 1.8 µg/mL |
| CC(C)c1c(CO)cn(Cc2ccncc2)c1Sc1cc(F)cc(F)c1 | - | cytopathic effect / MTT | MT-4 | IIIB | - | 0.4 µM |
| Cc1cn([C@@H]2O[C@H](CC3CCCCC3)C3(OS(=O)(=O)C=C3N)[C@H]2OC(=O)c2ccccc2)c(=O)[nH]c1=O | - | cytopathic effect / trypan blue | MT-4 | IIIB | - | >4 µg/mL |
| Cc1ccc(NC(=S)NCCc2ccc(Br)s2)nc1 | - | - | PBMC | IIIB | - | 0.16 µM |
| O=c1c(-c2ccc(O)cc2)coc2cc(OCc3ccc(F)cc3)cc(O)c12 | - | syncytia | C8166 | IIIB | - | 22 µg/mL |
| CN(C)c1cccc2c(S(=O)(=O)N3CCSC3c3cccnc3)cccc12 | 3 d | β-galactosidase | MAGI + MAGI-CCR5 | HE-NEV | - | >2000 µM |
| O=c1[nH]c(=O)n([C@@H]2O[C@H](CO)[C@@H](O)[C@H]2O)c2c1Nc1ccccc1S2 | - | cytopathic effect / MTT | MT-4 | - | - | >53 µg/mL |
| CCOC(=O)c1cn(Cc2ccncc2)c(Sc2cccc(F)c2)c1C(C)C | - | cytopathic effect / MTT | MT-4 | IIIB | - | 3.2 µM |
| Cc1ccnc2c1NC(=O)c1cccnc1N2C1CC1 | - | syncytia | HT4 + HT4-6C | LAV-1 | - | <1 µM |
| Cc1ccnc2c1NC(=O)c1cccnc1N2C1CC1 | 5 d | cytopathic effect / MTT | MT-4 | IIIB-R | - | >1000 µM |
| CCOP(=O)(OC[C@H]1O[C@@H](n2cc(C)c(=O)[nH]c2=O)C[C@@H]1N=[N+]=[N-])C(N)=O | - | p24 | MT-4 | GKV-4046 | - | 0.0009 µM |
| CCOCn1c2c(c(=O)[nH]c1=O)Nc1ccc(C)cc1S2 | - | cytopathic effect / MTT | MT-4 | - | - | 1.4 µg/mL |
| Nc1ncnc2c1ncn2[C@@H]1CO[C@H](CO)C1 | - | - | MT-4 | - | - | 10–20 µM |
| O=C(O)P(=O)(O)O | - | plaque count | CEM | LAI | - | 133 µM |
| COc1ccc(/C=C/N(C)C(C)=O)c(OC)c1 | - | syncytia | C8166 | IIIB | - | 32 µM |
| CCCCCCCCCCCCCC(=O)OC[C@H](COP(=O)(O)OC[C@@H]1CC[C@H](n2cnc3c(=O)[nH]c(N)nc32)O1)OC(=O)CCCCCCCCCCCCC | - | ELISA | CEM13 + CEM | LAV-Bru | - | <10 µM |
| CCCCCCCCCc1ccc(OCCOCCOCCOCCOCCOCCOCCOCCOCCO)cc1 | - | p24 / ELISA | MT-4 | IIIB | - | 0.01 µg/mL |
| C[C@@]1(CO)CC[C@H](c2c[nH]c3c(N)ncnc23)C1 | - | - | MT-4 | - | - | 14.7 µM |
| CC(C)[C@H](NC(=O)OCc1ccccc1)C(=O)N[C@@H](Cc1ccccc1)C(=O)C(F)(F)CCc1ccccc1 | - | cytopathic effect | MT-4 | - | - | >100 µM |
| CC(=O)N(/C=C/c1ccccc1Br)Cc1c(F)cccc1F | - | syncytia | C8166 | IIIB | - | 29 µM |
| Nc1ccn([C@H]2CC[C@@H](CO)O2)c(=O)n1 | - | ELISA | CEM13 + CEM | LAV-Bru | - | <10 µM |
| CCOP(=O)(OC[C@@H]1C=C[C@H](n2cc(C)c(=O)[nH]c2=O)O1)C(=O)NC | - | p24 | MT-4 | GKV-4046 | - | 0.04 µM |
| Cc1cn([C@@H]2O[C@@H](CO[Si](C)(C)C(C)(C)C)C3(OS(=O)(=O)C=C3N)[C@@H]2O[Si](C)(C)C(C)(C)C)c(=O)[nH]c1=O | - | syncytia | CEM | IIIB | - | >20 µg/mL |
| Cc1ccccc1Sc1c(C(C)C)c(COC(N)=O)cn1Cc1ccncc1 | - | cytopathic effect / MTT | MT-4 | IIIB | - | 5.4 µM |
| Cc1cn([C@@H]2O[C@H](CCC(C)C)C3(OS(=O)(=O)C=C3N)[C@H]2OC(=O)c2ccccc2)c(=O)[nH]c1=O | - | cytopathic effect / trypan blue | MT-4 | IIIB | - | >4 µg/mL |
| CC(C)c1c(CO)cn(Cc2ccc(N)cc2)c1Sc1cc(Cl)cc(Cl)c1 | - | cytopathic effect / MTT | MT-4 | IIIB | - | 3 µM |
| C=CCc1ccc(O)c(-c2cc(CC=C)ccc2O)c1 | - | RT activity | PBMC | - | - | 3.3 µM |
| Cc1cc(SC2=C(O)CC(C)(CCc3ccc(O)cc3)OC2=O)c(C(C)(C)C)cc1OS(=O)(=O)c1cn(C)cn1 | - | cytopathic effect / XTT | CEM | IIIB | - | 16 µM |
| c1cc(CN2CCCNCCNCCCNCC2)ccc1CN1CCCNCCNCCCNCC1 | - | p24 | U87 (CD4+ CXCR4+) + U87 | HE R5X4 | - | <0.1 µM |
| Cc1cn([C@H]2C[C@H](N=[N+]=[N-])[C@@H](CO)O2)c(=O)[nH]c1=O | - | cytopathic effect | CEM | IIIB | - | <1 µM |
| Cc1cn([C@H]2C[C@H](N=[N+]=[N-])[C@@H](CO)O2)c(=O)[nH]c1=O | 5 d | cytopathic effect / MTT | MT-4 | IIIB | - | 0.022 µM |
| Cc1cccc(NC(=S)NCCc2ccc(Br)s2)n1 | - | - | PBMC | IIIB | - | 0.24 µM |
| Cc1cn([C@@H]2O[C@H](CC3CCCCC3)C3(OS(=O)(=O)C=C3N)[C@H]2O[Si](C)(C)C(C)(C)C)c(=O)[nH]c1=O | - | syncytia | CEM | IIIB | - | >4 µg/mL |
| O=C(O)c1cc(O)cc(O)c1N=Nc1ccc(/C=C/c2ccc(N=Nc3c(O)cc(O)cc3C(=O)O)cc2S(=O)(=O)O)c(S(=O)(=O)O)c1 | - | cytopathic effect / XTT | CEM + CEM-SS | IIIB | - | 3.2 µg/mL |
| S=C(NCCc1ccc(Br)s1)Nc1ccc(Cl)cn1 | - | - | PBMC | IIIB | - | 0.012 µM |
| O=c1[nH]c(=O)n(COCc2ccccc2)c2c1Nc1ccccc1S2 | - | cytopathic effect / MTT | MT-4 | - | - | >23 µg/mL |
| CC(=O)N(C)/C=C/c1ccccc1F | - | syncytia | C8166 | IIIB | - | 130 µM |
| CC(C)c1c(CO)cn(Cc2ccc([N+](=O)[O-])cc2)c1Sc1cc(Cl)cc(Cl)c1 | - | cytopathic effect / MTT | MT-4 | IIIB | - | 0.15 µM |
| Cc1cn([C@H]2CC[C@@H](CO)O2)c(=O)[nH]c1=O | - | ELISA | CEM13 + CEM | LAV-Bru | - | ~10 µM |
| CC(=O)N(/C=C/c1ccccc1Br)Cc1cc(F)cc(F)c1 | - | syncytia | C8166 | IIIB | - | 4 µM |
| CN(C)c1cccc2c(S(=O)(=O)N3CCSC3c3ccccn3)cccc12 | - | cytopathic effect / MTT | MT-4 | IIIB | - | >1000 µM |
| CCN(/C=C/c1ccccc1Br)C(C)=O | - | syncytia | C8166 | IIIB | - | 48 µM |
| Cc1cc(C)cc(Sc2c(C(C)C)c(CO)cn2Cc2ccncc2)c1 | - | cytopathic effect / MTT | MT-4 | IIIB | - | 0.5 µM |
| CC(C)C[C@H](NC(=O)[C@@H](O)[C@H](N)Cc1ccccc1)C(=O)O | - | RT activity | HuT-78 + HUT 78 | IIIB | - | 20 µg/mL |
| CC(C)[C@H](NC(=O)OCc1ccccc1)C(=O)N[C@@H](Cc1ccccc1)C(=O)C(F)(F)CCc1ccccn1 | - | cytopathic effect | MT-4 | - | - | 5.7 µM |
| CCOP(=O)(CC[C@]1(CO)C=C[C@H](n2cnc3c(N)ncnc32)C1)OCC | - | - | CEM | - | - | 47.5 µM |
| CC(C)[C@H](NC(=O)OCc1ccccn1)C(=O)N[C@@H](Cc1ccccc1)C(=O)C(F)(F)CCc1ccccc1 | - | cytopathic effect | MT-4 | - | - | 6.3 µM |
| C=CCN(/C=C/c1ccccc1C)C(C)=O | - | syncytia | C8166 | IIIB | - | 273 µM |